Experimental data: PubChem BioAssay AID1903 (Southern Research Specialized Biocontainment Screening …, 2009)
This is one part of the list. Results with a measured potency or affinity are listed apart. Activity calls are given as the source filed them. The rule behind the calls is not given here.

Chains of the proteins cited; added tags and fusions are not shown.
UniProt P03070, whole entry: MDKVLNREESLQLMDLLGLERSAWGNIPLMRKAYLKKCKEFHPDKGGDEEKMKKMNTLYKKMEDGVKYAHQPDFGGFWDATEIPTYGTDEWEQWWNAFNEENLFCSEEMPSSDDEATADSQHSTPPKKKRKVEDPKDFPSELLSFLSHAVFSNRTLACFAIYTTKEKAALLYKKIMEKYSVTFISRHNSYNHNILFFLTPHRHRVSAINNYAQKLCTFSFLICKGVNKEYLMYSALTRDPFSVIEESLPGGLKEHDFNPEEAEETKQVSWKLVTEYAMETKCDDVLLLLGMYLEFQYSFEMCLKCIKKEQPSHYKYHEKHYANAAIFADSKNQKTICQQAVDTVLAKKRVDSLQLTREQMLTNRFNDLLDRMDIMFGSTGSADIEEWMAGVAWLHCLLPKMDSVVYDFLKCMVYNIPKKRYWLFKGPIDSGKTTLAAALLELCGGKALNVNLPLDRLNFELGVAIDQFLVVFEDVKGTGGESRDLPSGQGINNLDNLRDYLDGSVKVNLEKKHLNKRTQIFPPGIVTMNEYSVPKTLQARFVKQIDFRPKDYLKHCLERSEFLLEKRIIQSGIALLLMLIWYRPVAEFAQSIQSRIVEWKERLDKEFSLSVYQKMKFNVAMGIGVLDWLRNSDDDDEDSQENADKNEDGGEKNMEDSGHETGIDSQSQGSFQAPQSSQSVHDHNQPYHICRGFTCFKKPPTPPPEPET

Each molecule was assayed against Large T antigen (Simian virus 40) (UniProt P03070) (assay: TAg ATPase/helicase activity blockers – biochemical (AID 1903)). Conditions: SV40 large T antigen ATPase/helicase inhibition assay; at 20 µM; active compounds read high.

Q: Which inhibition does the source give for CCN1CCC(Nc2cccc(F)c2)CC1 here?
A: inactive: 3.3%

Q: CN(C)c1ccc(C(=O)NCC2(N3CCCCC3)CCCCC2)cc1 was tested. Which inhibition did it give?
A: inactive: 20.7%

Q: With COc1cc(OC)cc(C(=O)NCC2(N3CCCCC3)CCCCC2)c1 as the molecule, how does the inhibition read?
A: inactive: -1.32%

Q: With Fc1ccccc1NC1CCN(Cc2ccccc2)CC1 as the molecule, how does the inhibition read?
A: inactive: 3.74%

Q: With Cc1ccc(C(=O)NCC2(N3CCCCC3)CCCCC2)o1 as the molecule, how does the inhibition read?
A: inactive: 11.4%

Q: With CCC(CO)(C(=O)OC1CN2CCC1CC2)c1ccccc1 (stereo not given) as the molecule, how does the inhibition read?
A: inactive: 5.59%

Q: COc1cc(OC)cc(C(=O)NCC2(N3CCOCC3)CCCCC2)c1 was tested. Which inhibition did it give?
A: inactive: 3.35%

Q: For COc1cccc(C(=O)N(c2cc(C)cc(C)c2)C2CCN(C(=O)OC(C)(C)C)CC2)c1, which inhibition is on record?
A: inactive: 5.16%

Q: For CCCOc1ccc(C)cc1CN(CCCl)CCCl, which inhibition is on record?
A: inactive: 1.68%

Q: With CN1CCC(Nc2ccc(Cl)cc2)CC1 as the molecule, how does the inhibition read?
A: inactive: 9.74%

Q: CN1CCC(Nc2ccc(F)c(Cl)c2)CC1 was tested. Which inhibition did it give?
A: inactive: 11.3%

Q: With CCOc1ncccc1C(=O)NCC1(N2CCOCC2)CCCCC1 as the molecule, how does the inhibition read?
A: inactive: -2.67%

Q: CCCOc1ccc(C(=O)NCC2(N(C)C)CCCCC2)cc1 was tested. Which inhibition did it give?
A: inactive: 4.98%

Q: How did the inhibition turn out when O=C(O)C1(Nc2ccccc2)CCN(Cc2ccccc2)CC1 was run?
A: inactive: 3.84%

Q: With CC(C)(C)OC(=O)N1CCC(Nc2ccccc2)CC1 as the molecule, how does the inhibition read?
A: inactive: 11%

Q: Which inhibition does the source give for N/C(=N\O)c1c(N)no[n+]1[O-] here?
A: inactive: 0.26%

Q: With CCOC(=O)N1CCC(Nc2ccc(C)cc2)CC1 as the molecule, how does the inhibition read?
A: inactive: 16.6%

Q: Which inhibition does the source give for O=C(OC1CN2CCC1CC2)C1c2ccccc2C=Cc2ccccc21 (stereo not given) here?
A: inactive: 10.9%

Q: With CCc1cc(C(=O)NCC2(N3CCCCC3)CCCCC2)sc1C as the molecule, how does the inhibition read?
A: inactive: 7.53%

Q: COc1ccc(C(=O)NCC2(N3CCOCC3)CCCCC2)cc1OC was tested. Which inhibition did it give?
A: inactive: 1.57%

Q: Which inhibition does the source give for CCCN1CCC(Nc2cc(OC)cc(OC)c2)CC1 here?
A: inactive: 0.82%

Q: Which inhibition does the source give for c1ccc(CN2CCC(Nc3ccccc3)CC2)cc1 here?
A: inactive: -1.91%

Q: How did the inhibition turn out when CN(C)C1(CNC(=O)c2cccc(C#N)c2)CCCCC1 was run?
A: inactive: 3.75%

Q: CC(C)(C)OC(=O)N1CCC(N(C(=O)c2ccccc2)c2ccc(Cl)cc2)CC1 was tested. Which inhibition did it give?
A: inactive: 5.02%

Q: With N#Cc1ccc(C(=O)NCC2(N3CCCCC3)CCCCC2)cc1 as the molecule, how does the inhibition read?
A: inactive: 6.69%

Q: With O=C(NCC1(N2CCCCC2)CCCCC1)c1cccc(C(F)(F)F)c1 as the molecule, how does the inhibition read?
A: inactive: 7.29%

Q: How did the inhibition turn out when CN1CCN(CCOC(=O)C(O)(c2ccccc2)c2ccccc2)CC1 was run?
A: inactive: 12.4%

Q: With COc1cc(C(=O)NCC2(N3CCCCC3)CCCCC2)ccc1OC(F)F as the molecule, how does the inhibition read?
A: inactive: 5.57%

Q: Which inhibition does the source give for O=C(NCC1(N2CCOCC2)CCCCC1)c1cc(=O)[nH]c2ccccc12 here?
A: inactive: 1.79%

Q: For O=C(NCC1(N2CCCCC2)CCCCC1)c1ccc(OC(F)F)cc1, which inhibition is on record?
A: inactive: 3.8%

Q: How did the inhibition turn out when O=C(NCC1(N2CCCCC2)CCCCC1)c1cccc([N+](=O)[O-])c1 was run?
A: inactive: 7.49%

Q: With N#CC1(Nc2ccccc2)CCN(CCc2ccccc2)CC1 as the molecule, how does the inhibition read?
A: inactive: -0.235%

Q: CCN1CCC(Nc2ccc(Cl)cc2)CC1 was tested. Which inhibition did it give?
A: inactive: 10.2%

Q: For CCCOc1ccc(C(=O)NCC2(N(C)C)CCCCC2)cc1OC, which inhibition is on record?
A: inactive: 19.1%

Q: With CN(C)c1cccc(C(=O)NCC2(N3CCCCC3)CCCCC2)c1 as the molecule, how does the inhibition read?
A: inactive: -3.75%

Q: Which inhibition does the source give for COc1ccc(CN(CCCl)CCCl)cc1Cl here?
A: inactive: 15.7%

Q: How did the inhibition turn out when CC(C)c1ccc(NC2CCN(C(=O)OC(C)(C)C)CC2)cc1 was run?
A: inactive: 1.75%

Q: For COc1cc(OC)c(C(=O)NCC2(N(C)C)CCCCC2)cc1OC, which inhibition is on record?
A: inactive: 3.56%

Q: Which inhibition does the source give for O=C(NCC1(N2CCOCC2)CCCCC1)c1cc2ccccc2o1 here?
A: inactive: -1.08%

Q: With Cc1cc(C)cc(N(C(=O)c2ccccc2)C2CCN(C(=O)OC(C)(C)C)CC2)c1 as the molecule, how does the inhibition read?
A: inactive: 3.96%

Q: How did the inhibition turn out when O=C(NCC1(N2CCCCC2)CCCCC1)c1ccc(Cl)nc1 was run?
A: inactive: 19.4%

Q: Which inhibition does the source give for O=C(OC1CN2CCC1CC2)C1c2ccccc2Oc2ccccc21 (stereo not given) here?
A: inactive: 2.82%

Q: How did the inhibition turn out when N#CC1(Nc2ccccc2)CCN(Cc2ccccc2)CC1 was run?
A: inactive: 12%

Q: For O=C(NCC1(N2CCCCC2)CCCCC1)c1cccs1, which inhibition is on record?
A: inactive: 25.7%

Q: How did the inhibition turn out when O=C(NCC1(N2CCCCC2)CCCCC1)c1ccc(=O)[nH]c1 was run?
A: inactive: 26.2%

Q: With CC(C)(C)OC(=O)N1CCC(N(C(=O)c2ccccc2)c2ccc(F)cc2)CC1 as the molecule, how does the inhibition read?
A: inactive: 7.09%

Q: For COc1ccc(C(=O)NCC2(N3CCCCC3)CCCCC2)c(OC)c1OC, which inhibition is on record?
A: inactive: 23.7%

Q: With COc1ccc(C(=O)NCC2(N3CCCCC3)CCCCC2)cc1 as the molecule, how does the inhibition read?
A: inactive: 8.71%

Q: Which inhibition does the source give for CSc1ccccc1C(=O)NCC1(N2CCCCC2)CCCCC1 here?
A: inactive: 11.3%

Q: Cc1ccc(OCC(C)C)c(CN(CCCl)CCCl)c1 was tested. Which inhibition did it give?
A: inactive: 6.76%

Q: Which inhibition does the source give for COc1cc(C(=O)NCC2(N(C)C)CCCCC2)ccc1OC(F)F here?
A: inactive: 1.23%

Q: For CCOC(=O)N1CCC(Nc2cccc(C)c2)CC1, which inhibition is on record?
A: inactive: 9.68%

Q: How did the inhibition turn out when CCOc1ccc(C)cc1CN(CCCl)CCCl was run?
A: inactive: -0.225%

Q: CCOC(=O)N1CCC(Nc2ccc(F)cc2)CC1 was tested. Which inhibition did it give?
A: inactive: 9.41%

Q: Which inhibition does the source give for O=C(NCC1(N2CCCCC2)CCCCC1)c1ccc(F)cc1 here?
A: inactive: 5.28%
